Results on three compounds are retold here after US20250051300A1, “GRAM-NEGATIVE SPECIFIC ANTIBIOTICS SPARING EFFECT ON GUT MICROBIOME” (THE BOARD OF TRUSTEES OF THE UNIVERSITY OF ILLINOIS, priority 2021, published 2025).

This series relates to E. coli BW25113. Briefly: Accumulation assay (whole-cell, LC-MS/MS). To be noted: E. coli BW25113, 50 μM compound, 10 min. The format is cell-based, Escherichia coli.

For `Fc1ccc(COc2cccc(-c3n[nH]cc3-c3ccncc3)c2)cc1` [Compound 2, 4-(3-(3-((4-fluorobenzyl)oxy)phenyl)-1H-pyrazol-4-yl)pyridine], the “whole-cell accumulation in E. coli” value is on record as “accumulate very poorly”.
The same measure for `Cc1cc(-c2nc(C(C)(C)C)[nH]c2-c2ccc3c(c2)OCCO3)ccn1` [Compound 1, 4-(2-(tert-butyl)-5-(2,3-dihydrobenzo[b][1,4]dioxin-6-yl)-1H-imidazol-4-yl)-2-methylpyridine]: “accumulate very poorly”.
With `Cc1cc(-c2c[nH]nc2-c2cccc(OCc3cccc(C#N)c3)c2)cc(C)n1` [Compound 12, 3-((3-(4-(2,6-dimethylpyridin-4-yl)-1H-pyrazol-3-yl)phenoxy)methyl)benzonitrile] the entry was “below the limit of detection”.
